Measured values from several laboratories, pooled; numbers as filed in NIAID ChemDB.

Common to all: toxicity to cultured cells; cells: MT-4; endpoint: CC50

An empty or dashed field is not shown.

compound,method,value
CC(=O)O[C@@]12[C@H](O)[C@@H](C)[C@]3(O)[C@@H]4C=C(C)C(=O)[C@@H]4CC(CO)=C[C@H]3[C@@H]1C2(C)C,-,>1000 µg/mL
CCOC(=O)c1csc(N2N=C(c3ccccc3)CC2c2ccc(Cl)cc2)n1,MTT / absorbance,11.51 µM
CC(C)CCNC(=O)C(F)(F)C(=O)[C@H](Cc1ccc(OCc2ccccc2)cc1)NC(=O)[C@@H](NC(=O)OCc1ccccc1)C(C)C,-,44 µM
CCCCCCCCCCCCCC(=O)O[C@@H]1[C@@H](C)[C@@]2(O)[C@@H](C=C(COC(C)=O)C[C@]3(OC)C(=O)C(C)=C[C@@H]23)[C@@H]2C(C)(C)[C@]12OC(C)=O,-,>15.6 µg/mL
Nc1ccn([C@H]2CC[C@@H](CO)O2)c(=O)n1,MTT,>95 µM
CCc1c(Sc2cccc3ccccc23)n(COC)c(=O)[nH]c1=O,MTT,38.78 µM
O=C(Nc1cc(-c2ccc3c(c2)CCCC3)[nH]n1)c1ccc(-c2ccncc2)s1,-,>30 µM
CCc1c(Sc2ccc3ccccc3c2NC(C)=O)n(COCc2ccccc2)c(=O)[nH]c1=O,MTT,155 µM
O=C(N/N=C/c1ccc(OCc2ccccc2)cc1)c1csc(N2N=C(c3ccccc3)CC2c2ccc(Cl)cc2)n1,MTT / absorbance,>125 µM
CCCCCCCCCC(=O)O[C@@H]1[C@@H](C)[C@@]2(O)C(C=C(CO)C[C@]3(O)C(=O)C(C)=CC23)C2C(C)(C)[C@@]21OC(=O)C(C)CC,-,>31.3 µg/mL
CCCCCCCCCCCCCC(=O)O[C@@]12[C@H](OC(C)=O)[C@@H](C)[C@@]3(O)[C@@H](C=C(CO)C[C@]4(O)C(=O)C(C)=C[C@@H]34)[C@@H]1C2(C)C,-,>125 µg/mL
CC1=C[C@]23C(=O)[C@@H](C=C(COC(=O)C(C)(C)C)[C@@H](O)[C@]2(O)[C@H]1OC(=O)C(C)(C)C)[C@H]1[C@@H](C[C@H]3C)C1(C)C,MTT,8.9 µg/mL
Cc1cn([C@H]2C[C@H](N=[N+]=[N-])[C@@H](CO)O2)c(=O)[nH]c1=O,MTT,>2 µg/mL
O=C(N/N=C/c1ccc(Cl)cc1)c1csc(N2N=C(c3ccccc3)CC2c2ccc(Cl)cc2)n1,MTT / absorbance,>125 µM
COc1cccc(S(=O)(=O)/N=c2\sc(C(C)(C)C)c(C)n2C)c1,MTT,>25 µM
O=C(O)C[C@@H]1C(=O)O[C@H]2[C@@H]3OC(=O)c4cc(O)c(O)c(O)c4-c4c(cc(O)c(O)c4O)C(=O)OC[C@H]2O[C@@H](OC(=O)c2cc(O)c(O)c(O)c2)[C@@H]3OC(=O)c2cc(O)c(O)c3c2[C@H]1[C@H](O)C(=O)O3,-,19.2 µg/mL
Cc1ccnc2c1NC(=O)c1cccnc1N2C1CC1,MTT / absorbance,>4 µM
CC(C)=CCN1Cc2cccc3[nH]c(=O)n(c23)CC1C,-,840 µM
CC(C)CNC(=O)C(F)(F)C(=O)[C@H](Cc1ccc(OCc2ccccc2)cc1)NC(=O)[C@@H](NC(=O)OCc1ccccc1)C(C)C,-,6 µM
Oc1cc(O)c2c(c1)O[C@H](c1ccc(O)c(O)c1)[C@@H](O)C2,-,>100 µg/mL
O=C1c2ccccc2C(=O)N1CCOC(=S)N(C(=O)c1cccnc1Cl)c1ccc(Cl)cc1,-,>200 µM
Cc1cc(C#Cc2cccc(N)c2)cc(C)c1Oc1ccnc(NC2CCN(Cc3cccc(C(N)=O)c3)CC2)n1,MTT,0.63 µM
CC(C)=CCC/C(C)=C/CC/C(C)=C/Cc1c(O)cc(C)cc1O,-,38 µM
O=C(O[C@@H]1Cc2c(O)cc(O)cc2O[C@@H]1c1ccc(O)c(O)c1)c1cc(O)c(O)c(O)c1,-,36.2 µg/mL
CC(=O)NCC(=O)N[C@H](C(=O)N[C@@H](Cc1ccccc1)C(=O)C(F)(F)CCc1ccccc1)C(C)C,-,>100 µM
O=C(O[C@H](Cc1ccc(O)c(O)c1)C(=O)O)C1=Cc2cc(O)c(O)cc2[C@@H](c2ccc(O)c(O)c2)[C@@H]1C(=O)O[C@H](Cc1ccc(O)c(O)c1)C(=O)O,-,29.2 µg/mL
COCCOCn1c(Sc2cccc3ccccc23)c(C(C)C)c(=O)[nH]c1=O,MTT,35.58 µM
N#Cc1ccc(Nc2nc(Cc3c(Cl)cccc3Cl)nc(NOCC(=O)N3CCOCC3)n2)cc1,MTT,19.95 µM
CC(C)[C@H](NC(=O)OCc1ccccn1)C(=O)N[C@@H](Cc1ccccc1)C(=O)C(F)(F)CCc1ccccc1,-,21 µM
CCCCCCCCCCCC(=O)O[C@@]12C[C@@H](C)[C@]34C=C(C)[C@H](O)[C@@]3(O)[C@H](O)C(COC(=O)C(C)(C)C)=C[C@H](C4=O)[C@@H]1C2(C)C,MTT,2.24 µg/mL
O=C(CSc1nncnc1-c1ccccc1Cl)Nc1ccccn1,MTT,172 µM
Cc1c(C(C)C)s/c(=N\S(=O)(=O)c2cc(C#N)ccc2C#N)n1C,MTT,11 µM
CC(C)Nc1cccnc1N1CCN(C(=O)c2cc3cc(NS(C)(=O)=O)ccc3[nH]2)CC1,MTT,>36 µM
Cc1c(C(C)(C)C)s/c(=N\S(=O)(=O)c2cc(Cl)ccc2O)n1C,MTT,>25 µM
CCOC(=O)c1cc(O)c(O)c(O)c1,-,8.6 µg/mL
CC(C)=CCN1Cc2cccc3[nH]c(=S)n(c23)C[C@@H]1C,-,>870 µM
Cc1cccc(COCn2c(Sc3cccc4ccccc34)c(C(C)C)c(=O)[nH]c2=O)c1,MTT,29.6 µM
CC(=O)c1ccc(NC(=O)CSc2nncnc2-c2ccccc2Cl)c(Br)c1,MTT,34 µM
O=C(N/N=C/c1ccc(Cl)cc1O)c1csc(N2N=C(c3ccccc3)CC2c2ccc(Cl)cc2)n1,MTT / absorbance,0.45 µM
CC(C)=CCN1Cc2cc(Cl)cc3[nH]c(=S)n(c23)C[C@@H]1C,-,31 µM
O=C(N/N=C/c1ccccc1O)c1csc(N2N=C(c3ccccc3)CC2c2ccc(Cl)cc2)n1,MTT / absorbance,7.33 µM
Cc1cn([C@@H]2CC[C@H](CO)[Se]2)c(=O)[nH]c1=O,MTT,>100 µM
Cn1c(CN(CCN2CCCCC2)CC2CCCN(C3CCCC3)C2)nc2ccccc21,MTT,40 µM
COCn1c(Sc2ccc3ccccc3c2)c(C(C)C)c(=O)[nH]c1=O,MTT,59.58 µM
CCCCC/C=C\C/C=C\CCCCCCCC(=O)OCC1=C[C@H]2[C@@H]3C(C)(C)[C@]3(OC(C)=O)[C@H](O)[C@@H](C)[C@]2(O)[C@@H]2C=C(C)C(=O)[C@@]2(O)C1,-,>62.5 µg/mL
CC(C)c1c(Sc2cccc3ccccc23)n(COCc2ccc(F)cc2)c(=O)[nH]c1=O,MTT,30.23 µM
CCCCCCCCCCCC(=O)O[C@@]12[C@H](OC(=O)C(C)CC)[C@@H](C)[C@@]3(O)[C@@H](C=C(CO)C[C@]4(O)C(=O)C(C)=C[C@@H]34)[C@@H]1C2(C)C,-,>62.5 µg/mL
Cc1cn([C@H]2CC[C@H](CO)[Se]2)c(=O)[nH]c1=O,MTT,>100 µM
Cc1ccccc1NC(=O)CSc1nncnc1-c1ccccc1Cl,MTT,142 µM
COc1ccc(S(=O)(=O)/N=c2\sc(C(C)(C)C)c(C)n2C)cc1,MTT,>25 µM
c1cc(CN2CCCNCCNCCCNCC2)ccc1CN1CCCNCCNCCCNCC1,MTT,>10 µM
CCc1c(Sc2ccc3ccccc3c2[N+](=O)[O-])n(COC)c(=O)[nH]c1=O,MTT,50.13 µM
O=c1c2ccccc2[se]n1-c1ccccc1,MTT,>20 µg/mL
O=c1ccn([C@@H]2CC[C@H](CO)[Se]2)c(=O)[nH]1,MTT,>100 µM
Cc1cc(C#Cc2cccc(N)c2)cc(C)c1Oc1ccnc(NC2CCN(c3cccc(C(N)=O)c3)CC2)n1,MTT,1.063 µM
O=C(O)CSc1ccc2[nH]c3ccccc3c(=O)c2c1,-,>400 µg/mL
Cc1c(C(C)(C)C)s/c(=N\S(=O)(=O)c2cccc([N+](=O)[O-])c2)n1C,MTT,>25 µM
Cc1cc(/C=C/c2ccccc2)cc(C)c1Oc1ccnc(Nc2ccc(C#N)cc2)n1,MTT,18.5 µM
C=CCN1Cc2cccc3[nH]c(=O)n(c23)C[C@@H]1C,-,674 µM
CC[C@H](C)[C@@H](C(=O)O)n1sc2ccccc2c1=O,-,>100 µM
Cc1cc(C#Cc2ccc(C(=O)O)cc2)cc(C)c1Oc1ccnc(Nc2ccc(C#N)cc2)n1,MTT,25 µM
CCCCCCCCCCCC(=O)O[C@@]12C[C@@H](C)[C@]34C=C(C)[C@H](OC(=O)c5ccccc5)[C@@]3(O)[C@H](O)C(CO)=C[C@H](C4=O)[C@@H]1C2(C)C,MTT,4.51 µg/mL
O=C(/C=C/c1ncc(-c2cccnc2)cn1)Nc1cc(-c2ccc3c(c2)CCCC3)[nH]n1,-,>30 µM
C/C=C(/C)C(=O)O[C@]12C(C3C=C(CO)C[C@]4(O)C(=O)C(C)=CC4[C@@]3(O)[C@H](C)[C@H]1OC(C)=O)C2(C)C,-,>500 µg/mL
Cc1ccnc2c1NC(=O)c1cccnc1N2C1CC1,MTT,>15.02 µM
CC1=C[C@@H]2[C@@H](CC(CO)=C[C@H]3[C@@H]4C(C)(C)[C@]4(O)[C@H](O)[C@@H](C)[C@]23O)C1=O,-,>500 µg/mL
CCCCCCCCCCCC(=O)O[C@@]12C[C@@H](C)[C@]34C=C(C)[C@H](O)[C@@]3(O)[C@H](O)C(COCc3ccccc3)=C[C@H](C4=O)[C@@H]1C2(C)C,MTT,9.5 µg/mL
Cc1cc(C#Cc2ccccn2)cc(C)c1Oc1ccnc(Nc2ccc(C#N)cc2)n1,MTT,2.068 µM
CCc1c(Sc2ccc3ccccc3c2[N+](=O)[O-])n(COCc2ccccc2)c(=O)[nH]c1=O,MTT,34.19 µM
Nc1ncnc2c1ncn2[C@H]1C=C[C@@H](OCP(=O)(O)O)O1,-,>100 µM
Cc1c(C(C)(C)C)s/c(=N\S(=O)(=O)c2cccc(O)c2)n1C,MTT,>25 µM
CC(=O)OCC1=C[C@H]2[C@@H]3C(C)(C)[C@]3(OC(C)=O)[C@H](O)[C@@H](C)[C@]2(O)[C@@H]2C=C(C)C(=O)[C@@H]2C1,-,>500 µg/mL
Cc1c(C(C)(C)C)s/c(=N\S(=O)(=O)c2cccc(Cl)c2O)n1C,MTT,>25 µM
O=C(N/N=C/c1cccc([N+](=O)[O-])c1)c1csc(N2N=C(c3ccccc3)CC2c2ccc(Cl)cc2)n1,MTT / absorbance,0.47 µM

Conditions beyond the fields shown may differ between rows. CCn is the concentration with n% toxicity to the cells.